Measured values as given in article PMC9104152, “Phosphoproteomics Unravel HBV Triggered Rewiring of Host Phosphosignaling Events” (International Journal of Molecular Sciences, 2022).
Where “and” joins values, the source holds several entries; their conditions need not be identical. Identical values can stand only once.

Tested on: HepG2-NTCP cells
Experiment: TMT-based phosphoproteome profiling of HBV-infected vs mock HepG2-NTCP (HBV/mock ratio)
Parameters: species or system human
Conditions: HBV-infected vs mock HepG2-NTCP, sheet Up-regulated
[1] = phosphosite abundance ratio of host protein, 7dpi
[2] = phosphosites of host proteins deregulated at 7dpi

Substance	HBV/mock [1]	HBV/mock [2]
O00264 1xPhospho [O00264 1xPhospho [S57(100)]]	1.735	
O00264 1xPhospho [O00264 1xPhospho [S181(100)]]	1.467	
O14646 2xPhospho [O14646 2xPhospho [S215(100); S216(100)]]	1.37	
O43166 1xPhospho [O43166 1xPhospho [S]]	1.315	
O43823 1xPhospho [O43823 1xPhospho [S328(100)]]	1.353	
O75376 1xPhospho [O75376 1xPhospho [S2120(100)]]	1.341	
O75691 1xPhospho [O75691 1xPhospho [S2601(100)]]		1.379
O95071 1xPhospho [O95071 1xPhospho [S1549(99.7)]]		1.402
O95602 1xPhospho [O95602 1xPhospho [Y/S]]	1.46	
P01308	2.057	
P04114 1xPhospho [P04114 1xPhospho [S4048(100)]]	6.399	
P04406 1xPhospho [P04406 1xPhospho [S/T]]	1.4302	
P05067 1xPhospho [P05067 1xPhospho [S441(100)]]	1.361	
P08238 1xPhospho [P08238 1xPhospho [S226(100)]]	1.609 and 1.38	
P13861 1xPhospho [P13861 1xPhospho [S]]	1.586 and 1.431	
P17252 1xPhospho [P17252 1xPhospho [T/Y]]	1.712	
P28066 1xPhospho [P28066 1xPhospho [T/S]]	1.835	
P41227 2xPhospho [P41227 2xPhospho [S205(100); S209(100)]]	1.373	
P42356 1xPhospho [P42356 1xPhospho [S/T]]	1.303	
P43686	1.3097	
P46100 1xPhospho [P46100 1xPhospho [S213(100)]]	1.313	
P46100 2xPhospho [S675(99.4); S677(99.4)]	1.381	

Substance	HBV/mock [1]	HBV/mock [2]
P48634 1xPhospho [P48634 1xPhospho [S1386(99.6)]]	1.386	
P48643	1.364 and 1.351	
P49327 1xPhospho [P49327 1xPhospho [S207(100)]]	1.378	
P49327 1xPhospho [P49327 1xPhospho [S1411(99.4)]]	1.435	
P49327 1xPhospho [P49327 1xPhospho [S/T/Y]]	1.421	
P49327 1xPhospho [P49327 1xPhospho [T2204(100)]]	1.711	
P49327 2xPhospho [S2198(100); T2204(100)]	1.622	
P51812 1xPhospho [P51812 1xPhospho [S415(100)]]	5.685	
P52701 1xPhospho [P52701 1xPhospho [S137(99.8)]]	1.441	
P52701 1xPhospho [P52701 1xPhospho [S227(100)]]	1.866	
P52756 1xPhospho [P52756 1xPhospho [S59(100)]]	1.382	
P55010 1xPhospho [P55010 1xPhospho [S229(99.7)]]	1.357	
P55010 1xPhospho [P55010 1xPhospho [S/Y]]	1.897	
P57682 1xPhospho [P57682 1xPhospho [Y/S]]	1.333	
P60174 1xPhospho [P60174 1xPhospho [S58(100)]]		1.517
P68363 1xPhospho [P68363 1xPhospho [S439(100)]]		1.721
P78527 1xPhospho [P78527 1xPhospho [S2612(98.3)]]	1.382	
Q2KHR3 2xPhospho [T1341(100); S1348(100)]	1.469	
Q2PPJ7 2xPhospho [Q2PPJ7 2xPhospho [S820(99.8); S821(100)]]	1.3586	
Q5SYE7 1xPhospho [Q5SYE7 1xPhospho [S328(100)]]	1.338	
Q5T200 3xPhospho [S316(100); S325(99.4); T/S]		1.364
Q5UIP0 1xPhospho [Q5UIP0 1xPhospho [S2393(100)]]	1.446	

Substance	HBV/mock [1]	HBV/mock [2]
Q5VTR2 1xPhospho [Q5VTR2 1xPhospho [S138(100)]]	1.402	
Q7Z5L9 3xPhospho [S455(100); S457(100); S460(100)]	1.3947	
Q7Z6Z7 1xPhospho [Q7Z6Z7 1xPhospho [S3919(100)]]	1.407	
Q7Z6Z7 1xPhospho [Q7Z6Z7 1xPhospho [T/S]]	1.32	
Q7Z6Z7 2xPhospho [T3924(100); T3927(100)]	1.978	
Q8IWU5 1xPhospho [Q8IWU5 1xPhospho [S838(99.8)]]		1.316
Q8NBP7 1xPhospho [Q8NBP7 1xPhospho [S688(100)]]	8.489	
Q8NDI1 1xPhospho [Q8NDI1 1xPhospho [S171(99.6)]]	1.416	
Q8NFA0 2xPhospho [S1361(99.5); S1372(100)]		1.406
Q9BXY0 2xPhospho [Q9BXY0 2xPhospho [S229(100); S232(100)]]	1.4	
Q9C0C9 1xPhospho [Q9C0C9 1xPhospho [S515(100)]]		1.711
Q9C0C9 2xPhospho [Q9C0C9 2xPhospho [S87(100); S89(100)]]		1.359
Q9H4Z3 1xPhospho [Q9H4Z3 1xPhospho [S/T]]	1.494	
Q9HCK8 1xPhospho [Q9HCK8 1xPhospho [S/T]]	1.405	
Q9UBS3 1xPhospho [Q9UBS3 1xPhospho [S]]	5.911	
Q9UQ35 1xPhospho [Q9UQ35 1xPhospho [S954(100)]]		1.349
Q9Y4B6 1xPhospho [Q9Y4B6 1xPhospho [S/T/Y]]	1.327	
Q9Y5B9 1xPhospho [Q9Y5B9 1xPhospho [S982(100)]]		9.901
Q9Y6D5 1xPhospho [Q9Y6D5 1xPhospho [S277(99.8)]]	1.425	
Q9Y6D5 2xPhospho [Q9Y6D5 2xPhospho [S]]	1.424	
Q9Y6G9 1xPhospho [Q9Y6G9 1xPhospho [S207(100)]]	1.659 and 1.617	
Q9Y6G9 2xPhospho [T513(99.6); S516(99.2)]	2.111	

Substance	HBV/mock [1]	HBV/mock [2]
Q9Y6R4 1xPhospho [Q9Y6R4 1xPhospho [S431(100)]]	1.335	
Q27J81 2xPhospho [T20(98.7)	1.602	
Q58FF8 1xPhospho [Q58FF8 1xPhospho [S177(100)]]	1.388	
Q70CQ2 1xPhospho [Q70CQ2 1xPhospho [S2488(99.3)]]		1.556
Q96JG6 2xPhospho [S559(99.7); S561(99.7)]		1.314
Q96QB1 1xPhospho [Q96QB1 1xPhospho [S566(100)]]	1.303	
Q96QB1 2xPhospho [Q96QB1 2xPhospho [S523(100); S526(100)]]	1.333	
Q02952 1xPhospho [Q02952 1xPhospho [S483(100)]]	1.339	
Q12789 1xPhospho [Q12789 1xPhospho [S1611(100)]]	1.408	
Q13107 2xPhospho [Q13107 2xPhospho [S675(99.6); S680(100)]]		1.452
Q13144 1xPhospho [Q13144 1xPhospho [S544(100)]]	1.374	
Q13283 2xPhospho [Q13283 2xPhospho [S/T]]	1.42	
Q13547 2xPhospho [Q13547 2xPhospho [S421(100); S423(100)]]	1.512	
Q13576 1xPhospho [Q13576 1xPhospho [S16(100)]]	1.714	
Q14568 1xPhospho [Q14568 1xPhospho [S263(100)]]	8.103	
Q16513 1xPhospho [Q16513 1xPhospho [T/S/Y]]	4.943	
Q16659 1xPhospho [Q16659 1xPhospho [S189(100)]]	1.36	
Q92614 1xPhospho [Q92614 1xPhospho [S]]	1.344	
Q93008 1xPhospho [Q93008 1xPhospho [S1600(100)]]		1.405
Q93008 2xPhospho [S1593(99.7); S1600(100)]		1.301
Q99638 1xPhospho [Q99638 1xPhospho [S328(100)]]	1.667	
